PubChem BioAssay AID1259414 – Drosophila RNAi Screening Center | 2018

Screen: 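Host factors increasing or decreasing Wolbachia levels in cultured fly cells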 (primary screen)
System: Drosophila JW18 cells infected with Wolbachia
Reagents: long dsRNA against Drosophila genes, 0.25 µg dsRNA per well of a 384-well plate
Time to read-out: 5 days
Challenge: cells persistently infected with Wolbachia before knock-down; no added drug
Measured: 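Imaged fluorescence in situ signal for Wolbachia 23S rRNA per DAPI-counted host cell, given as a robust z-score within each plate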
Reading the numbers: Wolbachia per cell robust z: higher = more Wolbachia per host cell than the plate typical
Hit rule: 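Hit when robust z is 1.5 or more, or -1.5 or less, in at least two of three replicates; excludes dsRNAs with several or no targets, genes not expressed in JW18 and well A1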
The screen tested about 24,000 reagents; below is an unselected part of those with a known target gene and a result. Over the whole deposit, about 1,210 (5%) are marked active. 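Inactive calls also include excluded dsRNAs with several or no targets, genes unexpressed in JW18, and well A1, regardless of score.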 Entries without a mark were called inactive. The numbers tell different reagents against one gene apart. A plus sign joins genes that one reagent is predicted to hit.

| gene | reagent | Wolbachia per cell robust z, rep 1 | Wolbachia per cell robust z, rep 2 | Wolbachia per cell robust z, rep 3 |
| --- | --- | --- | --- | --- |
| CG4988 | 1 | 0.00749 | 0.463 | -0.291 |
| veil | 1 | -0.0605 | -1.2 | 0.91 |
| veil | 2 | -0.137 | -2.16 | -0.932 |
| mIF2 + CR40068 | 1 | 1.38 | 0.824 | 1.57 |
| CG11768 + CG34135 + Nasp | 1 | -2.14 | -0.0107 | -1.11 |
| Gr98c | 1 | 0.835 | 0.981 | 1.54 |
| Gr98c | 2 | -5.22 | -4.09 | -1.05 |
| Hayan | 1 | -4.44 | -6.4 | 0.884 |
| Hayan | 2 | 0.217 | 1.09 | 1.1 |
| Hayan | 3 | 1.21 | 0.965 | 0.631 |
| sick | 1 | 0.918 | 1.04 | 0.802 |
| sick | 2 | 0.0759 | -0.18 | -0.0356 |
| sick | 3 | 0.482 | 0.599 | 1.59 |
| sick | 4 | 0.0532 | -6.02 | -1.42 |
| sick | 5 | -1.05 | -0.0668 | 0.343 |
| sick | 6 | -0.533 | -2.39 | -0.533 |
| E(Pc) | 1 | 0.206 | 0.93 | 1.16 |
| E(Pc) | 2 | 2.41 (active) | 2.53 | 1.63 |
| Pgcl | 1 | -3.19 | 1.16 | 0.98 |
| spz | 1 | 0.775 | 0.535 | -0.619 |
| spz | 2 | -1.13 | -0.0313 | -0.413 |
| spz | 3 | -0.138 | 1.1 | -0.247 |
| CG1695 | 1 | -0.399 | -0.088 | 0.476 |
| CG1695 | 2 | -0.453 | 0.24 | -13 |
| sau | 1 | 0.446 | 2 | -0.322 |
| kz | 1 | 0.463 | -0.816 | -0.226 |
| D19B | 1 | 1.04 | -0.67 | 0.0802 |
| D19B | 2 | 0.809 | 1.17 | 0.994 |
| HUWE1 | 1 | 0.602 | 0.852 | -1.58 |
| Cad89D | 1 | -0.426 | -0.0431 | 0.472 |
| CG17707 | 1 | 0.104 | 0.286 | 0.604 |
| Mppe | 1 | 0.687 | 0.0464 | -0.459 |
| EloC | 1 | 0.203 | -0.285 | -1.96 |
| EloC | 2 | 1.17 | 1.49 | 1.26 |
| Zasp67 | 1 | 1 | -0.985 | -5.64 |
| Zasp67 | 2 | 0.0745 | 1.16 | 1 |
| CG6763 | 1 | -4.38 | 0.104 | 0.585 |
| CG6763 | 2 | 1.79 | 0.658 | -0.351 |
| Pkd2 | 1 | -0.497 | 0.0294 | 0.575 |
| Pkd2 | 2 | -1.54 | -0.0737 | -0.671 |
| tth | 1 | 0.289 | 0.478 | -1.46 |
| tth | 2 | -0.243 | -0.237 | 0.249 |
| CG30496 | 1 | 0.307 | 0.049 | -2.57 |
| Dhc64C | 1 | 0.867 | 0.802 | 1.5 |
| Dhc64C | 2 | 0.0015 | -0.304 | 0.332 |
| MstProx + Mst84Da | 1 | 0.0399 | 0.477 | 1.21 |

Sorted by “Wolbachia per cell robust z, rep 2” (lowest first): 5 of the entries above
| gene | reagent | Wolbachia per cell robust z, rep 1 | Wolbachia per cell robust z, rep 2 | Wolbachia per cell robust z, rep 3 |
| --- | --- | --- | --- | --- |
| Zasp67 | 1 | 1 | -0.985 | -5.64 |
| EloC | 1 | 0.203 | -0.285 | -1.96 |
| CG6763 | 1 | -4.38 | 0.104 | 0.585 |
| Zasp67 | 2 | 0.0745 | 1.16 | 1 |
| EloC | 2 | 1.17 | 1.49 | 1.26 |
